Pooled drug test results. Numbers come from NIAID ChemDB, via PubChem.

Common to all: tests in culture; organism: HIV-1; cells: CEM; read by: syncytia; measure: fold resistance

Conditions beyond the fields shown may differ between rows. Fold resistance: result on the changed form divided by that on wild type. An empty or dashed field is not shown.

SMILES	changes	strain or isolate	result
CCn1c(=O)c(C)cn([C@@H]2O[C@H](CO[Si](C)(C)C(C)(C)C)C3(OS(=O)(=O)C=C3N)[C@H]2O[Si](C)(C)C(C)(C)C)c1=O	RT-Y181C	IIIB PYR(RT-Y181C)	>833
C=C(C)OC(=O)N1c2cc(Cl)ccc2NC(=S)C1(C)C	RT-Y188H	HEPT (RT Y188H)	78.6
Nc1ncnc2c1ncn2CCOCP(=O)(O)O	RT-K103N	IIIB TIBO R82913 STR-2 (RT K103N)	1.43
CN1C(=O)N(Cc2ccccc2)S(=O)(=O)c2cscc21	RT-Y181C		>141
CCNc1cccnc1N1CCN(C(=O)c2cc3cc(OC)ccc3[nH]2)CC1	RT-V179N	IIIB-Pyridinone(0.1)(RT-V179N	26.5
CCN1C(=O)N(Cc2ccccc2)S(=O)(=O)c2cscc21	RT-K103N		>111
Cc1cn([C@@H]2O[C@H](CO[Si](C)(C)C(C)(C)C)C3(OS(=O)(=O)C=C3N)[C@H]2O[Si](C)(C)C(C)(C)C)c(=O)n(C)c1=O	RT-L100I Y188H	IIIB TIBO R82913 STR-B22 (RT L100I Y188H)	≥1670
Cc1cn([C@@H]2O[C@H](CO[Si](C)(C)C(C)(C)C)C3(OS(=O)(=O)C=C3N)[C@H]2O[Si](C)(C)C(C)(C)C)c(=O)n(C)c1=O	RT-V179N	IIIB-Pyridinone(0.1)(RT-V179N	7.33
CC(C)=CCN1Cc2cc(Cl)cc3[nH]c(=S)n(c23)C[C@@H]1C	RT-Y181C	IIIB PYR(RT-Y181C)	100
Cc1cn([C@@H]2O[C@H](CO[Si](C)(C)C(C)(C)C)[C@@]3(OS(=O)(=O)C=C3N)[C@H]2O[Si](C)(C)C(C)(C)C)c(=O)[nH]c1=O	RT-L100I Y181C	IIIB TIBO R82913 STR-1 (RT L100I Y181C)	100
Cc1cn([C@@H]2O[C@H](CO[Si](C)(C)C(C)(C)C)C3(OS(=O)(=O)C=C3N)[C@H]2O[Si](C)(C)C(C)(C)C)c(=O)n(C)c1=O	RT-L100I	TIBO-1(RT-L100I)	1.75
CCOCn1c(Cc2cc(C)cc(C)c2)c(CC)c(=O)[nH]c1=O	RT-L100I	IIIB BHAP(RT-L100I)	10
Nc1nc2c(ncn2[C@H]2CC[C@@H](CO)O2)c(=O)[nH]1	RT-Y181C	Pyr(RT-Y181C)	0.75
O=c1[nH]cnc2c1ncn2[C@H]1CC[C@@H](CO)O1	RT-Y181C	IIIB-Nevirapine(1.0)(RT-Y181C)	2
N#CCN1C(=O)N(Cc2ccccc2)S(=O)(=O)c2cscc21	RT-Y181C		>250
CC(C)Nc1cccnc1N1CCN(C(=O)c2cc3ccccc3[nH]2)CC1	RT-G190E	MN-QUIN(RT-G190E)	110
CCOCn1c(Sc2ccccc2)c(CC)c(=O)[nH]c1=O	RT-V106A	IIIB NEV(RT-V106A)	16
CCOCn1c(Cc2cc(C)cc(C)c2)c(CC)c(=O)[nH]c1=O	RT-L100I Y188H	IIIB TIBO R82913 STR-B22 (RT L100I Y188H)	120
O=C1N(Cc2ccccc2)c2cscc2S(=O)(=O)N1Cc1ccccc1	RT-L100I		≥5.78
CCn1c(=O)c(C)cn([C@@H]2O[C@H](CO[Si](C)(C)C(C)(C)C)C3(OS(=O)(=O)C=C3N)[C@H]2O[Si](C)(C)C(C)(C)C)c1=O	RT-L100I E138K	IIIB TIBO R82913 STR-B02 (RT L100I E138K)	>1670
Nc1ccn([C@H]2CC[C@@H](CO)O2)c(=O)n1	RT-Y181C	IIIB-Nevirapine(1.0)(RT-Y181C)	0.8
CC(C)=CCN1Cc2cccc3[nH]c(=S)n(c23)C[C@@H]1C	RT-L100I E138K	IIIB TIBO R82913 STR-B02 (RT L100I E138K)	250
CCNc1cccnc1N1CCN(C(=O)c2cc3cc(OC)ccc3[nH]2)CC1	RT-L100I	IIIB BHAP(RT-L100I)	125

For reference, 2 entries again:

{"SMILES": "CCn1c(=O)c(C)cn([C@@H]2O[C@H](CO[Si](C)(C)C(C)(C)C)C3(OS(=O)(=O)C=C3N)[C@H]2O[Si](C)(C)C(C)(C)C)c1=O", "changes": "RT-Y181C", "strain or isolate": "IIIB PYR(RT-Y181C)", "result": ">833"}
{"SMILES": "Nc1ccn([C@H]2CC[C@@H](CO)O2)c(=O)n1", "changes": "RT-Y181C", "strain or isolate": "IIIB-Nevirapine(1.0)(RT-Y181C)", "result": "0.8"}